In this experiment the target is human Nav1.7 (human), Q15858. The experiment can be described thus: cell-based or functional assay.

The molecule GPQCQKWMQTCDAERKCCEGFSCTLWCKKKLW (modifications not checked) [NV1G1137] showed a Nav1.7 IC50, FLIPR Tetra membrane depolarization of 95.7 nM.

The values are drawn from patent publication US20210363204A1.
